Measured values from several laboratories, pooled; numbers as filed in NIAID ChemDB.

Shared fields: tests on isolated targets; agent: Hepatitis C virus

ICn is the concentration giving n% inhibition. Rows are shuffled and stem from different studies. Percent inhibition refers to the dose given; in toxicity tests it is the harm to the cells. An empty or dashed field is not shown. Two numbers with a dash give a range or band.

structure | protein | measure | tested at | result
C[C@H](NC(=O)c1cnn2c(C3CCCCC3)c(-c3ccc(F)cc3)cnc12)C(=O)O | RNA-dependent RNA polymerase | IC50 |  | 1–10 µM
CNC(=O)c1ccc(-c2ccc(Cl)cc2)c(-c2ccc3cc(-c4nc5cc(C(=O)O)ccc5n4C4CCCCC4)ccc3n2)c1 | NS5B polymerase | inhibition | 100 µM | 101%
CC(C)(C)OC(=O)NCC(NC(=O)Nc1ccsc1-c1nc(C(=O)O)c(O)c(=O)[nH]1)c1ccccc1 | HCV polymerase | IC50 |  | <25 µM
CNC(=O)c1c(-c2ccc(F)cc2)oc2cc(-c3cc(C)on3)c(OC(C)C)cc12 | Nonstructural protein 5B | IC50 |  | ≤0.5 µM
O=C(O)c1nc(-c2cc3ccccc3s2)[nH]c(=O)c1O | HCV polymerase | IC50 |  | <25 µM
CNC(=O)c1c(-c2ccc(F)cc2)oc2cc(-c3cccc(S(C)(=O)=O)c3)c(OC(C)C)cc12 | Nonstructural protein 5B | IC50 |  | ≤0.5 µM
COc1ccc(-c2ccc(Cl)cc2)c(-c2ccc3cc(-c4nc5cc(C(=O)O)ccc5n4C4CCNCC4)ccc3n2)c1 | NS5B polymerase | inhibition | 100 µM | 77.35%
CCOc1ccc2oc(-c3ccc(Cl)s3)c(C(=O)NC)c2c1 | Nonstructural protein 5B | IC50 |  | ≤0.5 µM
NC(=O)C(CC(=O)O)NC(=O)c1cnn2c(C3CCCCC3)c(-c3ccc(F)cc3F)cnc12 | RNA-dependent RNA polymerase | IC50 |  | 1–10 µM
CNC(=O)c1c(-c2ccc(F)cc2)oc2cc(-c3cnc[nH]3)c(OC)cc12 | Nonstructural protein 5B | IC50 |  | ≤0.5 µM
O=C(O)c1sc(-c2ccccc2)cc1N(C(=O)c1ccc(Cl)cc1Cl)c1ccccc1 | NS3 ATPase | IC50 |  | <5 µM
O=C(OCc1ccc(S(=O)(=O)Nc2ccccc2-c2nc(C(=O)O)c(O)c(=O)[nH]2)s1)c1ccccc1 | HCV polymerase | IC50 |  | <100 µM
N#Cc1cnn2c(-c3ccccc3)c(-c3ccc(Oc4ccccc4)cc3)cnc12 | RNA-dependent RNA polymerase | IC50 |  | >10 µM
O=C(O)c1nc(-c2sccc2Br)[nH]c(=O)c1O | HCV polymerase | IC50 |  | <25 µM
OCc1cnn2c(C3CCCCC3)c(-c3ccc(OCc4ccccc4)cc3)cnc12 | RNA-dependent RNA polymerase | IC50 |  | >10 µM
O=C(Nc1ccsc1-c1nc(C(=O)O)c(O)c(=O)[nH]1)OCCc1ccccc1C(F)(F)F | HCV polymerase | IC50 |  | <25 µM
O=C(O)c1cc2nc(-c3ccc(Cl)cc3)cc(N3CCN(c4ccccn4)CC3)n2n1 | RNA-dependent RNA polymerase | IC50 |  | >10 µM
O=C(Nc1ccccc1-c1nc(C(=O)O)c(O)c(=O)[nH]1)OCc1ccccc1 | HCV polymerase | IC50 |  | <100 µM
O=C(O)CCC(NC(=O)c1ccc2c(c1)nc(-c1ccc3nc(-c4ccccc4)cnc3c1)n2C1CCCCC1)C(=O)O | NS5B polymerase | inhibition | 33 µM | 73.22%
CCCC(=O)N(Cc1ccccc1Cl)c1cc(-c2ccccc2)sc1C(=O)O | NS3 ATPase | IC50 |  | <5 µM
O=C(O)c1ccc2c(c1)nc(-c1ccc3nc(-c4ccc(Oc5ccccc5)cc4)ccc3c1)n2C1CCCCC1 | NS5B polymerase | inhibition | 33 µM | 98.85%
O=S(=O)(Nc1csc(-c2ccc(Cl)cc2)c1)c1ccccn1 | NS3 ATPase | IC50 |  | 5–20 µM
O=C(NC(Cc1ccc(-c2ccccc2)cc1)C(=O)O)c1ccc2c(c1)nc(-c1ccc3nc(-c4ccccc4)cnc3c1)n2C1CCCCC1 | NS5B polymerase | inhibition | 100 µM | 96.08%
O=C(O)c1cc2nc(-c3ccc(Cl)cc3)cc(-c3cc(F)cc(F)c3)n2n1 | RNA-dependent RNA polymerase | IC50 |  | 1–10 µM
O=C(O)c1ccc2c(c1)nc(-c1ccc3nc(-c4ccnc5ccccc45)ccc3c1)n2C1CCCCC1 | NS5B polymerase | inhibition | 33 µM | 102%
Cc1ccccc1S(=O)(=O)Nc1cc(-c2cccc(O)c2)sc1C(=O)O | NS3 ATPase | IC50 |  | <5 µM
O=C(Nc1ccsc1-c1nc(C(=O)O)c(O)c(=O)[nH]1)c1cccc(Cl)c1 | HCV polymerase | IC50 |  | <25 µM
O=C(O)c1ccc2c(c1)nc(-c1ccc3nc(C(=O)N(c4ccc(Cl)cc4)C4CCCCC4)ccc3c1)n2C1CCCCC1 | NS5B polymerase | inhibition | 100 µM | 95.68%
CC(C)N(C(=O)c1ccc(Cl)cc1)c1cc(-c2ccccc2)sc1C(=O)O | NS3 ATPase | IC50 |  | <5 µM
Cc1noc(C)c1-c1cnc2c(C(=O)O)cnn2c1C1CCCCC1 | RNA-dependent RNA polymerase | IC50 |  | >10 µM

3 of the rows above, restated:

structure | protein | measure | tested at | result
O=C(OCc1ccc(S(=O)(=O)Nc2ccccc2-c2nc(C(=O)O)c(O)c(=O)[nH]2)s1)c1ccccc1 | HCV polymerase | IC50 |  | <100 µM
CC(C)(C)OC(=O)NCC(NC(=O)Nc1ccsc1-c1nc(C(=O)O)c(O)c(=O)[nH]1)c1ccccc1 | HCV polymerase | IC50 |  | <25 µM
N#Cc1cnn2c(-c3ccccc3)c(-c3ccc(Oc4ccccc4)cc3)cnc12 | RNA-dependent RNA polymerase | IC50 |  | >10 µM